The target of the test is full-length hepatitis C viral protein NS3•4A (Hepatitis C virus genotype 1a, UniProt P27958). Briefly: HCV NS3 Peptide Cleavage Assay (Enzyme Assay 2), apparent Ki. The source says:
Using standard recombinant DNA techniques, a cDNA fragment encoding the sequence for NS3 and NS4A, residues Ala1027 to Cys1711 from the HCV sub-type strain 1a, containing an N-terminal hexa-histidine sequence, was cloned into the baculoviral transfer vector pVL1392 (Webb N R and Summers M D (1990) Expression of proteins using recombinant baculoviruses, Techniques 2:173-188). […] The transfected insect cells containing recombinant baculovirus clones were subsequently isolated by plaque purification. High-titer clonal baculovirus was routinely used to infect SD insect cells for protein production. In production, Sf9 cells were grown at 27° C. until they reached a density of 2.0×10^6 cells/ml. At this point, the insect cells were infected with virus. After 72 hours or when the cell viability was between 70-80% the culture was harvested and the cells were ready for purification. The NS3•4A protein (SEQ ID NO:1) was purified as follows. Cell paste was thawed in at least five volumes of Lysis Buffer (50 mM Na2HPO4 pH 8.0, 10% Glycerol, 300 mM NaCl, 5 mM β-mercaptoethanol, 0.2 mM PMSF, 2.5 μg/ml Leupeptin, 1.0 μg/mlE64, 2.0 μg/ml Pepstatin) per gram of cell paste. The cell paste was then homogenized on ice using a Dounce homogenizer. The cells were next mechanically disrupted by passing once through a microfluidizer (Microfluidics Corporation, Newton, Mass.), and the cell lysate was collected on ice. The cell lysates was centrifuged at 100,000×g for 30 minutes at 4° C. and the supernatants were decanted. Optionally, the pellets were resuspended in wash buffer (Lysis Buffer+0.1% β-octyl glucopyranoside), homogenized using a Dounce homogenizer and centrifuged at 100,000×g for 30 minutes at 4° C. Insoluble NS3° 4A was extracted from the pellets by resuspending in Extraction Buffer (Lysis Buffer+0.5% lauryl maltoside) using 2.5 ml/g cell paste. The mixture was homogenized using a Dounce homogenizer and mixed at 4° C. for three hours or more. The mixture was centrifuged at 100,000×g for 30 minutes at 4° C. The supernatants were decanted and pooled. The NS3•4A protein was further purified using Nickel-NTA metal affinity chromatography. Imidazole from a 2 M stock, pH 8.0, solution was added to the pooled supernatants so that the final concentration of imidazole was 10 mM. The supernatants were incubated batchwise overnight at 4° C. with Nickel-NTA affinity resin that had been pre-equilibrated with Lysis Buffer+10 mM imidazole. 1 ml of resin per 5 μg of expected NS3-4A was used. The resin was next settled by gravity or by centrifugation at 500×g for five minutes. The resin was next poured into a gravity flow column and washed with 10 or more column volumes of Nickel Wash Buffer (Lysis Buffer+0.1% lauryl maltoside+10 mM imidazole). The column was next eluted with three to four column volumes of Nickel Elution Buffer (Nickel Wash Buffer+300 mM imidazole). The elution fractions were collected on ice and evaluated using SDS-PAGE. To prevent NS3-4A proteolysis, 100 μM DFP protease inhibitor was added to gel samples before adding SDS sample buffer and boiling. The peak fractions were pooled and protein concentration was determined by measuring absorbance at 280 ηm and by dividing by the extinction coefficient (e), which for NS3•4A is 1.01. The NS3•4A was purified further using gel filtration chromatography. A Superdex 200 26/60 column was equilibrated with Superdex Buffer (20 mM HEPES pH 8.0, 10% glycerol, 300 mM NaCl, 10 mM β-mercaptoethanol, 0.05% lauryl maltoside) at a rate of 3 ml/min. The nickel purified NS3•4A was concentrated in a Centriprep 30 to greater than 2 mg/ml, if necessary, and was filtered through a 0.2 μm syringe filter and up to 10 ml was loaded onto the Superdex 200 column. After 0.3 column volumes passed through, 4-5 ml fractions were collected. Fractions were evaluated by SDS-PAGE. NS3•4A protein elutes in two peaks. Peak 1 contains aggregated NS3•4A and peak 2 contains active protein. The fractions of peak 2 were pooled, aliquoted and frozen at −70° C. […]

The chains behind the UniProt entries cited, without tags or fusion partners. A line that says so, or that is headed by a name, gives the form on record, which may keep a tag or linker. Residues count along the entry.
UniProt P27958, 1658-1711 partner limits assumed: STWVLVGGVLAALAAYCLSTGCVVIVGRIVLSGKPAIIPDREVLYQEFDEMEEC
UniProt P27958, 1027-1711 with tags or gaps with the stated changes: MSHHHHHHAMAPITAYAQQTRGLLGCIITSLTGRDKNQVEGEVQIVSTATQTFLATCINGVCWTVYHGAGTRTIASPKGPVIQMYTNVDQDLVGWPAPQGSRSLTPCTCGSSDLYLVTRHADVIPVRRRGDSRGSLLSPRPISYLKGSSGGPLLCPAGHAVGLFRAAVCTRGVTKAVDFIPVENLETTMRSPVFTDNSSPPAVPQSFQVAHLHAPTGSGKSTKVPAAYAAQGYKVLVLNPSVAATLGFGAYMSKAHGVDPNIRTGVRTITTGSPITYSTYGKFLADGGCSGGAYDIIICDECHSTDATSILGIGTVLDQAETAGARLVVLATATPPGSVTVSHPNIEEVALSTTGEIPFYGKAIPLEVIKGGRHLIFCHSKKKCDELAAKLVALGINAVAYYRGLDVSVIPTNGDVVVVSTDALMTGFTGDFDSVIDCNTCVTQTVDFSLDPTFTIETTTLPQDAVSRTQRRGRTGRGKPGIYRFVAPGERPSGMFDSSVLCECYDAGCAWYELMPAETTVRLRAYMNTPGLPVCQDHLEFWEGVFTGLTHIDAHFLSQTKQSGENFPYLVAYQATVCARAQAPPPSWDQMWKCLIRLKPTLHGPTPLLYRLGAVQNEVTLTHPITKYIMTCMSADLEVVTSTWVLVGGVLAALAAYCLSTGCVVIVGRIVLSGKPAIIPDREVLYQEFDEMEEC

[1] abbreviates: read-out: Enzyme Assay 2 (HCV NS3 Peptide Cleavage Assay) activity, apparent Ki class.
The mark [2] stands for this setting: read-out: Enzyme Assay 2, HCV NS3 Peptide Cleavage Assay, apparent Ki.

The values that follow come from patent US7964624B1, “Inhibitors of serine proteases” (priority 2005, dated 2011).

Where two headings read alike, the source gives them in different places. Bounds are passed on as bounds.

For `CNC(=O)C(=O)[C@H](CC1CC1)NC(=O)[C@@H]1C[C@]2(CC(c3cccc(Cl)c3)=NO2)CN1C(=O)[C@@H](NC(=O)[C@H]1CC1(F)F)C(C)(C)C`, under setting [1], the Ki was less than 100 nM. As for `CCC[C@H](NC(=O)[C@@H]1C[C@]2(CC(c3cc(C)c(OC)c(Cl)c3)=NO2)CN1C(=O)[C@@H](NC(=O)[C@@H]1C[C@H]1c1ccccc1)C(C)(C)C)C(=O)C(=O)NC`, under setting [2], the Ki was less than 100 nM. Still for that read-out and setting: as for `CCOc1c(C)cc(C2=NO[C@]3(C2)C[C@@H](C(=O)N[C@@H](CC2CC2)C(=O)C(=O)NC)N(C(=O)[C@@H](NC(=O)[C@@H]2C[C@H]2c2ccccc2)C(C)(C)C)C3)cc1Cl`, the figure is less than 100 nM; as for `CCOc1c(C)cc(C2=NO[C@]3(C2)C[C@@H](C(=O)N[C@@H](CC2CC2)C(=O)C(N)=O)N(C(=O)[C@@H](NC(=O)[C@@H]2C[C@H]2c2ccccc2)C(C)(C)C)C3)cc1C`, less than 100 nM; as for `CNC(=O)C(=O)[C@H](CC1CC1)NC(=O)[C@@H]1C[C@]2(CC(c3cc(C)c(OC)cc3OC)=NO2)CN1C(=O)[C@@H](NC(=O)[C@@H]1C[C@H]1c1ccccc1)C(C)(C)C`, less than 100 nM. On to `CCC[C@H](NC(=O)[C@@H]1C[C@]2(CC(c3cc(C)c(OC)c(C)c3)=NO2)CN1C(=O)[C@@H](NC(=O)[C@@H]1C[C@H]1c1ccccc1)C(C)(C)C)C(=O)C(=O)NC1CC1`, for which the Ki under setting [2] is less than 100 nM. On to `CNC(=O)C(=O)[C@H](CC1CC1)NC(=O)[C@@H]1C[C@]2(CC(c3cccc(Cl)c3)=NO2)CN1C(=O)[C@@H](NC(=O)[C@@H]1C[C@H]1c1cccs1)C(C)(C)C`, for which, under setting [1], the Ki was less than 100 nM.

Regarding `CCC[C@H](NC(=O)[C@@H]1C[C@]2(CC(c3cc(Cl)ccc3OC)=NO2)CN1C(=O)[C@@H](NC(=O)OC(C)(C)C)C(C)(C)C)C(=O)C(=O)NC1CC1`, the Ki under setting [1] is less than 100 nM. For `CCC[C@H](NC(=O)C1C[C@]2(CC(n3cc(C)c(=O)[nH]c3=O)=NO2)CN1C(=O)[C@@H](NC(=O)CC1CCCCC1)C(C)(C)C)C(=O)C(=O)NC1CC1` (stereo partly drawn), under setting [2], the Ki was in the range of 100 to 500 nM.

In the case of `CCOc1c(C)cc(C2=NO[C@]3(C2)C[C@@H](C(=O)N[C@@H](CC2CC2)C(=O)C(=O)NC)N(C(=O)[C@@H](NC(=O)CC2CCCCC2)C(C)(C)C)C3)cc1C`, the Ki under setting [1] is less than 100 nM. On to `CNC(=O)C(=O)[C@H](CC1CC1)NC(=O)[C@@H]1C[C@]2(CC(c3cccc(Cl)c3)=NO2)CN1C(=O)[C@@H](NC(=O)C1(C#N)CC1)C(C)(C)C`, for which, under setting [2], the Ki was in the range of 100 to 500 nM. On to `CCC[C@H](NC(=O)[C@@H]1C[C@]2(CC(c3cc(Cl)ccc3OC)=NO2)CN1C(=O)[C@@H](NC(=O)OC1CCCC1)C(C)(C)C)C(=O)C(N)=O`, for which, under setting [1], the Ki is less than 100 nM. As for `CCNC(=O)C(=O)[C@H](CC1CC1)NC(=O)[C@@H]1C[C@]2(CC(c3cc(C)c(OC)cc3OC)=NO2)CN1C(=O)[C@@H](NC(=O)CC1CCCCC1)C(C)(C)C`, the Ki under setting [2] was less than 100 nM. As for `CNC(=O)C(=O)[C@H](CC1CC1)NC(=O)C1C[C@]2(CC(c3cccc(Cl)c3)=NO2)CN1C(=O)[C@@H](NC(=O)[C@@H]1C[C@H]1c1cccc(F)c1)C(C)(C)C` (stereo partly drawn), the Ki under setting [2] was less than 100 nM. `CCOc1cc(OC)c(C2=NO[C@]3(C2)C[C@@H](C(=O)N[C@@H](CC2CC2)C(=O)C(=O)NC)N(C(=O)[C@@H](NC(=O)CC2CCCCC2)C(C)(C)C)C3)cc1Cl`: the Ki under setting [2] was less than 100 nM. As to `CCC[C@H](NC(=O)[C@@H]1C[C@]2(CC(c3cccc(Cl)c3)=NO2)CN1C(=O)[C@@H](NC(=O)C1(C)COC1)C(C)(C)C)C(=O)C(=O)NC1CC1`, the Ki under setting [2] was in the range of 100 to 500 nM. `CCC[C@H](NC(=O)[C@@H]1C[C@]2(CC(c3nccc4ccccc34)=NO2)CN1C(=O)[C@@H](NC(=O)CC1CCCCC1)C(C)(C)C)C(=O)C(=O)NC`: the Ki under setting [1] fell in the range of 100 to 500 nM.

On to `CCNC(=O)C(=O)[C@H](CC1CC1)NC(=O)[C@@H]1C[C@]2(CC(c3cc(C)c(OCC)c(C)c3)=NO2)CN1C(=O)[C@@H](NC(=O)[C@@H]1C[C@H]1c1ccccc1)C(C)(C)C`, for which the Ki under setting [2] is less than 100 nM. Consider `CCOc1c(C)cc(C2=NO[C@]3(C2)C[C@@H](C(=O)N[C@@H](CC2CC2)C(=O)C(=O)NC)N(C(=O)[C@@H](NC(=O)CC2CCCCC2)C(C)(C)C)C3)cc1Cl`, for which, under setting [2], the Ki is less than 100 nM.

Take `CCNC(=O)C(=O)[C@H](CC1CC1)NC(=O)[C@@H]1C[C@]2(CC(c3cccc(Cl)c3)=NO2)CN1C(=O)[C@@H](NC(=O)CC1CCCCCC1)C(C)(C)C`: the Ki under setting [2] was less than 100 nM.

For `CNC(=O)C(=O)[C@H](CC1CC1)NC(=O)[C@@H]1C[C@]2(CC(c3cccc(Cl)c3)=NO2)CN1C(=O)[C@@H](NC(=O)[C@@H]1C[C@H]1c1cccc(OC)c1)C(C)(C)C`, under setting [2], the Ki is less than 100 nM. Regarding `CCC[C@H](NC(=O)[C@@H]1C[C@]2(CC(c3cc(Cl)c(OC)cc3OC)=NO2)CN1C(=O)[C@@H](NC(=O)OC(C)(C)C)C(C)(C)C)C(=O)C(=O)NC`, the Ki under setting [1] is less than 100 nM. For `CCC[C@H](NC(=O)[C@@H]1C[C@]2(CC(c3cccc(Cl)c3)=NO2)CN1C(=O)[C@@H](NC(=O)CC1CCCCC1)C(C)(C)OC)C(=O)C(=O)NC1CC1`, the Ki under setting [2] was less than 100 nM.

`CCC[C@H](NC(=O)[C@@H]1C[C@]2(CC(c3cncnc3)=NO2)CN1C(=O)[C@@H](NC(=O)OC1CCCC1)C(C)(C)C)C(=O)C(=O)NC1CC1`: the Ki under setting [2] was greater than 500 nM.

Turning to `CCC[C@H](NC(=O)[C@@H]1C[C@]2(CC(c3cccc(Cl)c3)=NO2)CN1C(=O)[C@@H](NC(=O)c1noc2c1CCCC2)C(C)(C)C)C(=O)C(=O)NC1CC1`, the Ki under setting [2] was less than 100 nM. On to `CCC[C@H](NC(=O)[C@@H]1C[C@]2(CC(c3cc(C)c(OC)c(C)c3)=NO2)CN1C(=O)[C@@H](NC(=O)[C@@H]1C[C@H]1c1ccccc1)C(C)(C)OC)C(=O)C(=O)NC1CC1`, for which, under setting [2], the Ki is less than 100 nM.

As for `CCC[C@H](NC(=O)[C@@H]1C[C@]2(CC(c3cncnc3)=NO2)CN1C(=O)[C@@H](NC(=O)CC1CCCCC1)C(C)(C)C)C(=O)C(=O)NC1CC1`, the Ki under setting [2] is greater than 500 nM. For `CCC[C@H](NC(=O)[C@@H]1C[C@]2(CC(c3cc(C)c(OCC)c(Cl)c3)=NO2)CN1C(=O)[C@@H](NC(=O)CC1CCCCC1)C(C)(C)C)C(=O)C(=O)NC1CC1`, the Ki under setting [2] is less than 100 nM. As to `CNC(=O)C(=O)[C@H](CC1CC1)NC(=O)[C@@H]1C[C@]2(CC(c3cc(C)c(OC)c(C)c3)=NO2)CN1C(=O)[C@@H](NC(=O)OC1CCCC1)C(C)(C)C`, the Ki under setting [1] is less than 100 nM. For `CNC(=O)C(=O)[C@H](CC1CC1)NC(=O)[C@@H]1C[C@]2(CC(c3cccc(Cl)c3)=NO2)CN1C(=O)[C@@H](NC(=O)[C@H]1C[C@H]1C)C(C)(C)C`, the Ki under setting [1] was less than 100 nM. For the compound `CNC(=O)C(=O)[C@H](CC1CC1)NC(=O)[C@@H]1C[C@]2(CC(c3cc(C)c(OC)c(C)c3)=NO2)CN1C(=O)[C@@H](NC(=O)[C@@H]1C[C@H]1c1c[nH]cn1)C(C)(C)C`, the Ki under setting [2] is 100 to 500 nM. As for `CCC[C@H](NC(=O)[C@@H]1C[C@]2(CC(c3cc(Cl)ccc3OC)=NO2)CN1C(=O)[C@@H](NC(=O)OC(C)(C)C)C(C)(C)C)C(=O)C(N)=O`, the Ki under setting [1] is less than 100 nM. Take `CCNC(=O)C(=O)[C@H](CC1CC1)NC(=O)[C@@H]1C[C@]2(CC(c3cc(Cl)c(OC)cc3OC)=NO2)CN1C(=O)[C@@H](NC(=O)[C@@H]1C[C@H]1c1ccccc1)C(C)(C)C`: the Ki under setting [2] was less than 100 nM. `CCC[C@H](NC(=O)[C@@H]1C[C@]2(CC(c3cc(C)c(OCC)c(Cl)c3)=NO2)CN1C(=O)[C@@H](NC(=O)[C@@H]1C[C@H]1c1ccccc1)C(C)(C)C)C(=O)C(=O)NC`: the Ki under setting [2] was less than 100 nM.

As for `CCC[C@H](NC(=O)[C@@H]1C[C@]2(CC(c3cccc(Cl)c3)=NO2)CN1C(=O)[C@@H](NC(=O)OC(C)(C)C)C(C)(C)C)C(=O)C(=O)NC`, under setting [1], the Ki was less than 100 nM. In the case of `CCC[C@H](NC(=O)[C@@H]1C[C@]2(CC(c3cccc(Cl)c3OC)=NO2)CN1C(=O)[C@@H](NC(=O)CC1CCCCC1)C(C)(C)C)C(=O)C(=O)NC1CC1`, the Ki under setting [1] was 100 to 500 nM.
